# Substitutions are numbered along the chain they refer to. Names and notes keep the numbering of the source. Human monoclonal antibodies against the spike receptor-binding domain (heavy:light variable regions). IC50 against pseudoviruses bearing the spike of naturally observed variants; lower = stronger; >10 µg/ml means not reached at the top dose. No active / inactive call. The stated detection limit is 0.0005 µg/ml; values near or below 0.001 µg/ml lie at the floor of the assay.
# B1: BD55-846 (protein)
# chain 1: QVQLVESGGGLVKPGGSLRLSCAASGFTFRDYYMSWIRQAPGKGLEWVSYISSSGSTIYYADSVKGRFTISRDNGKNSLYLEMNSLRAEDTAVYYCARSFESGGDCYSDYWGQGTLVTVSS
# chain 2: SYELTQPPSVSVSPGQTARITCSGDALPKQYAYWYQQKPGQAPVLVIYKDSERPSGIPERFSGSSSGTTVTLTISGVQAEDEADYYCQSADSSGVVFGGGTKLTVL
# B2: BD55-925 (protein)
# chain 1: EVQLVESGGGLVQPGGSLRLSCAASGFTFHNYWMTWVRQAPGKGLEWVAKIKQDGGETHYVDSVRGRFTISTDNGKNSQYLQMDSLRAEDTAVYYCARGRYDFRSAYHDEVYFDYWGQGTLVTVSS
# chain 2: B1 chain 2 with G24A, P28R, K29N, A32T, K38R, I47M, S51T, S93R, V95P, K102R
# B3: P5A-2G9 (protein)
# chain 1: QVQLVESGGGVVQPGRSLRLSCAASGFTFSSYGMHWVRQAPGKGLEWVAVIWYDGSNKYYADSVKGRFTISRDNSKNTLYLQMNSLRAEDTAVYYCARWFHTGGYFDYWGQGTLVTVSS
# chain 2: QPVLTQPPSSSASPGESARLTCTLPSDINVSSYNIYWYQQKPGSPPRYLLYYYSDSDKGQGSGVPSRFSGSKDASANTGILLISGLQSEDEADYYCMIWPSNALYVFGTGTKVTVL
# B4: BD55-829 (protein)
# chain 1: QLQLQESGPGLLKPSETLSLICTVSGDSISSRCDYWGWIRQAPGKGLEWIGSIYYSGATYYTPSLKSRVTISVDTSTNQFSLRLNSVTAADTAVYYCAREKGHCSSWGGVYFDYWGQGALVTVSS
# chain 2: QSVLTQPPSVSGAPGQRVTISCIGSSSIGAGYDVHWYQQLPGIPPKLLIYGNNNRPSGVPDRFSGSKSGTSASLAITGRQAEDEADYFCQSYDTSLTARVFGGGTKLTVL
# B5: BD55-93 (protein)
# chain 1: EVQLVESGGGLVKPGGSLRLSCVASEFIFSTYSFNWVRQAPGKGLEWVSCISSSSNHIYYADSVKGRFTISRDNAKNSLYLQMNSLRAEDTAVYYCARDFKRRWELFHDYYGMDVWGQGTTVTVSS
# chain 2: QSALTQPASVSGSPGQSITISCTGTSSAVDGYNYVSWYQQHPGKAPKLMIYDVSERPSGVSNRFSGSKSGNTASLTISGLQAEDEADYYCSSYTSSNTFVFGGGTKLTVL
# B6: BD55-876 (protein)
# chain 1: QVHLVQSGAEVKKPGASVKVSCKASGYTFTDHYIHWVRQAPGQGLEWMGWINPNSGGTNYAQKFQGRVTMTRDTSISTAFMELSRLRSDDTAVYYCARHQSSNYFDSSGLDYWGQGNLVTVSS
# chain 2: QSALTQPRSVSGSPGQSVTISCTGTSSDVGTYNYVSWYQQHPGKAPKLMIYDVTERPSGVPDRFSGSKSGNTASLTISGLQAEDEADYYCCSYAGSYTVFGGGTKLTVL
# B7: BD55-859 (protein)
# chain 1: QVQLQESGPGLVKPSGTLSLTCAVSGDSITSTNWWSWLRQPPGKGLEWIGEIYHSGYTNYNPSLTSRVTILVDSSKNHFSLKLTSVTAADTAVYYCARRFGSFGTYYSDYWGQGTLVTVSS
# chain 2: IQLTQSPSSLSASVGDRVTITCRASQGISNYLVWYQQKPGKAPNLLIYAASTLQSGVPSRFSGSGSGTDFTLAISSLQPEDFATYYCQQVDSYPFTFGPGTKVDIK
# B8: BD55-870 (protein)
# chain 1: EVQLVESGGGLVQPGRSLRLSCAASGFTFDDFAMHWVRQAPGKGLEWVSGITWNGGVIGYGDSVKGRFTISRDNAKNSLFLQMRSLRTDDTAFYYCVKDFRATVTTGWFDPWGQGTLVTVSS
# chain 2: QSVLTQPPSASGTPGQRVTISCSGSSSNIGREIVNWYQQLPGTAPKLLIYSNNQRPSGVPDRFSGSKSGTSASLAISGLQSEDEADYYCSAWDDSLSGWVFGGGTKLTVL
# B9: BD55-934 (protein)
# chain 1: QVQLVESGGGVVQPGRSLRLSCAASGFTFGRYAFHWVRQGPGKGLEWVAVISYDGVHTYSSDSLKGRVTISRDNSRSTLFLQINSLETEDSALYFCARGPNGDFSHYLWSYGMDVWGQGTTVTVSS
# chain 2: SYVLTQPPSVSAAPGQTARITCGGDNIGRKSVHWYQHKPGQAPVLVVYDDGARPSGIPERFSGSNSGNTATLTISGLEAGDEADYYCQVCDTSSDHWIFGGGTKVTVL
# B10: BD55-930 (protein)
# chain 1: QLQLQESGPGLVKPSETLSLTCTVSGGSISSSTYYWGWIRQPPGKGLEWIGNIYYSGSTYYNPSLKSRVTISVDTSKNQFSLKLRSVTAADTAVYYCARHPAVAGREYFQHWGQGTLVTVSS
# chain 2: SYVLTQPPSVSVAPGKTARITCGGNNIGSKSVHWYQQKPGQAPVLVIYYDSDRPSGIPERFSGSNSGNTATLTISRVEAGDEADYFCQVWDGSSDHLYVFGTGTKVTVL
# B11: BD55-853 (protein)
# chain 1: QVQLQESGPGLVKPSETLSLTCTVSGGSINYYYWSWIRQPPGKGLEWIGYIYYSGSTNYNPSLKSRVTISVDTSKDQFSLKLSSVTAADTAVYYCASYGGHNYNWFDPWGQGTLVTVSS
# chain 2: QSVLTQPPSVSAAPGQKVTISCSGSSSNIENNFVSWYQQLPGTAPKLLIYDNNKRPSGIPDRFSGSKSGTSATLGITGLQTGDEADYYCGTWDSSLSAVVFGGGTKLTVL
# B12: BD55-875 (protein)
# chain 1: QVQLVESGGGVVQPGRSLRLSCAASGFTFSTFAMHWVRQAPGKGLEWVAVISYDGSYKYYADSVKGRFTISRDNSNNTLYLEMTSLRTEDTAVYYCAKEADFDWLLDTFDYWGQGILVTVSS
# chain 2: DIVMTQSPDSLAVSLGERATIRCKSSQSVLHNSNKKNYLAWFQQKPGQPPKLLLYWASTRESGVPDRFSGSGSETDFTLTISSLQAEDVAVYYCQQYYNTPPYTFGQGTKLEIK
# How the values were obtained:
# Experiment in all cases: pseudovirus neutralization IC50; higher = weaker neutralization
# [1] = target: SARS-CoV-2 Omicron BA.1 spike pseudovirus
# Protocol: (§1)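 Single-round VSV luciferase pseudovirus mixed with antibody dilutions for 1 h and put on Huh-7 cells for about a day; IC50 from the dose curve.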
# [2] = target: SARS-CoV-2 Omicron BA.2 spike pseudovirus
# Protocol: as §1
# [3] = target: SARS-CoV-2 Omicron BA.2.75 spike pseudovirus
# Protocol: as §1
# [4] = target: SARS-CoV-2 Omicron BA.5 spike pseudovirus
# Protocol: as §1
# [5] = target: SARS-CoV-2 Omicron BQ.1.1 spike pseudovirus
# Protocol: as §1
# [6] = target: SARS-CoV-2 Omicron XBB spike pseudovirus
# Protocol: as §1
# [7] = target: SARS-CoV-2 early D614G spike pseudovirus
# Protocol: as §1
Binder,pseudovirus neutralization IC50 [1] [µg/mL],pseudovirus neutralization IC50 [2] [µg/mL],pseudovirus neutralization IC50 [3] [µg/mL],pseudovirus neutralization IC50 [4] [µg/mL],pseudovirus neutralization IC50 [5] [µg/mL],pseudovirus neutralization IC50 [6] [µg/mL],pseudovirus neutralization IC50 [7] [µg/mL]
B1,> 10,> 10,> 10,> 10,> 10,> 10,> 10
B2,> 10,> 10,> 10,> 10,> 10,> 10,> 10
B3,> 10,> 10,> 10,> 10,> 10,> 10,0.0259
B4,> 10,> 10,> 10,> 10,> 10,> 10,> 10
B5,> 10,> 10,> 10,> 10,> 10,> 10,> 10
B6,> 10,> 10,> 10,> 10,> 10,> 10,> 10
B7,> 10,> 10,> 10,> 10,> 10,> 10,> 10
B8,> 10,> 10,> 10,> 10,> 10,> 10,> 10
B9,> 10,> 10,> 10,> 10,> 10,> 10,> 10
B10,> 10,> 10,> 10,> 10,> 10,> 10,> 10
B11,> 10,> 10,> 10,> 10,> 10,> 10,0.0086
B12,> 10,> 10,> 10,> 10,> 10,> 10,> 10
